The series relates to DENV-2 NGC. The series is described as follows: Antiviral activity against DENV-2 NGC in Vero-B cells (viral RNA load by RT-qPCR). Conditions: DENV-2 in Vero-B cells (Table 3); ratio CC50 / EC50. It is filed as cell-based, Dengue virus. For orientation: In qPCR the cycle at which signal appears reflects the starting amount.
For `COc1cccc(NC(C(=O)c2c[nH]c3ccccc23)c2ccccc2F)c1` (stereo not shown) [CPD-144], the SI is given as 320.

`COc1cccc(NC(C(=O)c2cn(CCO)c3ccc(F)cc23)c2ccccc2)c1` (stereo not shown) [CPD-146]: the SI turned out to be 498.

Turning to `COc1cc(NC(C(=O)c2cn(CCO)c3ccccc23)c2ccccc2)cc(OC)c1` (stereo not shown) [CPD-148], the SI amounted to 594.

Consider `COc1cccc(NC(C(=O)c2c[nH]c3ccccc23)c2ccc(F)cc2)c1` (stereo not shown) [CPD-149], for which the SI is reported as 554.

In the case of `COc1cccc(NC(C(=O)c2c[nH]c3cc(Cl)ccc23)c2cn3ccccc3n2)c1` (stereo not shown) [CPD-150], the SI came to 3956.

For `COc1cccc(NC(C(=O)c2c[nH]c3ccc(F)cc23)c2cccnc2)c1` (stereo not shown) [CPD-151], the SI is more than 1443.

Take `COc1cccc(NC(C(=O)c2c[nH]c3cc(F)ccc23)c2cccnc2)c1` (stereo not shown) [CPD-152]: the SI came to 814.

Consider `COc1cccc(NC(C(=O)c2c[nH]c3c(F)cccc23)c2cccnc2)c1` (stereo not shown) [CPD-153], for which the SI is recorded as more than 454.

Consider `COc1cccc(NC(C(=O)c2c[nH]c3ccc(F)cc23)c2ccc(OC)nc2)c1` (stereo not shown) [CPD-154], for which the SI was 778.

On to `COc1cccc(NC(C(=O)c2c[nH]c3c(F)cccc23)c2ccc(OC)nc2)c1` (stereo not shown) [CPD-155], for which the SI amounted to 191.

With `COc1cc(NC(C(=O)c2cn(CCCO)c3ccc(F)cc23)c2ccccc2)cc(OC)c1` (stereo not shown) [CPD-156], the SI is given as 665.

For `COc1cncc(NC(C(=O)c2c[nH]c3cc(F)ccc23)c2ccccc2)c1` (stereo not shown) [CPD-157], the SI is reported as 299.

Turning to `COc1cncc(NC(C(=O)c2c[nH]c3ccccc23)c2ccc(OC)nc2)c1` (stereo not shown) [CPD-158], the SI is recorded as 746.

In the case of `COc1cncc(NC(C(=O)c2c[nH]c3ccccc23)c2ccc(C#N)cc2)c1` (stereo not shown) [CPD-159], the SI is 624.

For `CNC(=O)c1cccc(NC(C(=O)c2c[nH]c3ccccc23)c2ccccc2)c1` (stereo not shown) [CPD-170], the SI was 58.

In the case of `CCOc1ccc(NC(C(=O)c2c[nH]c3ccccc23)c2ccccc2)cc1OC` (stereo not shown) [CPD-173], the SI worked out at 3693.

For the molecule `CC(=O)Nc1cccc(NC(C(=O)c2c[nH]c3ccccc23)c2ccccc2)c1` (stereo not shown) [CPD-174], the SI came out at 6.

In the case of `O=C(c1c[nH]c2ccccc12)C(Nc1cccc(CO)c1)c1ccccc1` (stereo not shown) [CPD-179], the SI was found to be 26.

`CC(NC(C(=O)c1c[nH]c2ccccc12)c1ccccc1)c1ccco1` (stereo not shown) [CPD-180]: the SI is more than 2.

Turning to `O=C(c1c[nH]c2ccccc12)C(Nc1cccc(N2CCCC2=O)c1)c1ccccc1` (stereo not shown) [CPD-181], the SI was more than 28.

With `O=C(c1c[nH]c2ccccc12)C(NC1CCOc2ccccc21)c1ccccc1` (stereo not shown) [CPD-182], the SI was 4.

For the molecule `O=C(c1c[nH]c2ccccc12)C(NC1CCCC1)c1ccccc1` (stereo not shown) [CPD-183], the SI came out at 6.

As to `CCCN1CCC(NC(C(=O)c2c[nH]c3ccccc23)c2ccccc2)CC1` (stereo not shown) [CPD-184], the SI is recorded as 3.

In the case of `CCc1cccc2c(C(=O)C(Nc3ccc(NC(=O)CN4CCOCC4)cc3)c3ccccc3)c[nH]c12` (stereo not shown) [CPD-186], the SI is listed as 9.

Consider `NS(=O)(=O)c1cccc(NC(C(=O)c2c[nH]c3ccccc23)c2ccccc2)c1` (stereo not shown) [CPD-187], for which the SI is listed as 18.

As for `CN(Cc1ccco1)C(C(=O)c1c[nH]c2ccccc12)c1ccccc1` (stereo not shown) [CPD-189], the SI is recorded as more than 156.

Regarding `O=C(c1c[nH]c2ccccc12)C(NCC1COc2ccccc2O1)c1ccccc1` (stereo not shown) [CPD-190], the SI came out at 7.

Take `O=C(c1c[nH]c2ccccc12)C(NC1CCSc2ccccc21)c1ccccc1` (stereo not shown) [CPD-191]: the SI was 5.

Turning to `CCOc1ccc(NC(C(=O)c2c[nH]c3ccccc23)c2ccccc2)cc1CO` (stereo not shown) [CPD-192], the SI is 9.

On to `COc1cccc(NC(C(=O)c2c[nH]c3ncccc23)c2ccccc2)c1` (stereo not shown) [CPD-194], for which the SI was determined as 65.

With `COc1cccc(NC(C(=O)c2c[nH]c3cccnc23)c2ccccc2)c1` (stereo not shown) [CPD-195], the SI came out at 5.

As for `COc1cccc(NC(C(=O)c2cnc3ccccn23)c2ccccc2)c1` (stereo not shown) [CPD-196], the SI was more than 2.

In the case of `COc1cccc(NC(C(=O)c2cnn3ccccc23)c2ccccc2)c1` (stereo not shown) [CPD-197], the SI is more than 42.

Take `COc1cccc(NC(C(=O)c2n[nH]c3ccccc23)c2ccccc2)c1` (stereo not shown) [CPD-198]: the SI is given as 119.

For the molecule `COc1cc(NC(C(=O)c2csc3ccccc23)c2cn3ccccc3n2)ccn1` (stereo not shown) [CPD-199], the SI was more than 4.

`COc1cccc(NC(C(=O)c2c[nH]c3cnccc23)c2ccccc2)c1` (stereo not shown) [CPD-200]: the SI stood at 24.

`COc1cccc(NC(C(=O)c2c[nH]c3ccncc23)c2ccccc2)c1` (stereo not shown) [CPD-201]: the SI amounted to 6.

Turning to `COc1cccc(NC(C(=O)c2csc3c2CCN(C)C3)c2ccccc2)c1` (stereo not shown) [CPD-202], the SI was 12.

As for `COc1cccc(NC(C(=O)c2nn(C)c3ccccc23)c2ccccc2)c1` (stereo not shown) [CPD-203], the SI is more than 185.

Turning to `COc1cccc(NC(C(=O)c2c[nH]c3c(F)cccc23)c2ccccc2)c1` (stereo not shown) [CPD-205], the SI is 244.

With `COc1cc(NC(C(=O)c2c[nH]c3ccc(F)cc23)c2ccc(OC)nc2)cc(OC)c1` (stereo not shown) [CPD-206], the SI was determined as 625.

`O=C(c1c[nH]c2ccccc12)C(Nc1ccnc(F)c1)c1ccccc1` (stereo not shown) [CPD-207]: the SI was 4.

As to `COc1cccc(NC(C(=O)c2cn(S(=O)(=O)C3CCOC3)c3ccccc23)c2ccccc2)c1` (stereo not shown) [CPD-208], the SI is more than 279.

Turning to `COc1cccc(NC(C(=O)c2cn(S(=O)(=O)c3cn(C)cn3)c3ccccc23)c2ccccc2)c1` (stereo not shown) [CPD-209], the SI is listed as more than 89.

Take `COc1cc(NC(C(=O)c2cn(CCCO)c3ccccc23)c2ccccc2)cc(OC)c1` (stereo not shown) [CPD-210]: the SI was 68.

With `CCS(=O)(=O)n1cc(C(=O)C(Nc2cccc(OC)c2)c2ccccc2)c2ccccc21` (stereo not shown) [CPD-211], the SI is more than 39.

As to `COc1cccc(NC(C(=O)c2cn(S(C)(=O)=O)c3ccc(F)cc23)c2ccccc2)c1` (stereo not shown) [CPD-212], the SI is listed as more than 260.

As to `COc1cccc(NC(C(=O)c2c[nH]c3cc(F)ccc23)c2ccc(OC)nc2)c1` (stereo not shown) [CPD-213], the SI was found to be 256.

For the molecule `COc1cccc(NC(C(=O)c2c[nH]c3ccccc23)c2ccc(F)nc2)c1` (stereo not shown) [CPD-214], the SI amounted to 469.

As to `COc1cccc(NC(C(=O)c2c[nH]c3ccccc23)c2cccnc2OC)c1` (stereo not shown) [CPD-215], the SI is 90.

For `COc1cccc(NC(C(=O)c2cn(CCN3CCOCC3)c3ccccc23)c2ccccc2)c1` (stereo not shown) [CPD-216], the SI is listed as more than 127.

`COc1cccc(NC(C(=O)c2cn(S(=O)(=O)C3CCNCC3)c3ccccc23)c2ccccc2)c1` (stereo not shown) [CPD-217]: the SI turned out to be 44.

For the molecule `COc1cc(NC(C(=O)c2c[nH]c3ccccc23)c2ccccc2)ccc1C#N` (stereo not shown) [CPD-218], the SI was 6.

Take `COc1cccc(NC(C(=O)c2c[nH]c3ccc(CO)cc23)c2ccccc2)c1` (stereo not shown) [CPD-219]: the SI was found to be 166.

On to `COc1cccc(NC(C(=O)c2nn(C)c3c2CNCC3)c2ccccc2)c1.Cl` (stereo not shown) [CPD-221], for which the SI is 3.

Turning to `COc1cccc(NC(C(=O)c2c[nH]c3c(OC)cccc23)c2ccccc2)c1` (stereo not shown) [CPD-222], the SI is more than 1003.

As to `COc1cccc(NC(C(=O)c2nn(C)c3c2CN(C)CC3)c2ccccc2)c1` (stereo not shown) [CPD-223], the SI was more than 2.

As to `COc1cccc(NC(C(=O)c2c[nH]c3c(C)cccc23)c2ccccc2)c1` (stereo not shown) [CPD-224], the SI is reported as more than 2622.

In the case of `COc1cccc(NC(C(=O)c2c[nH]c3nc(C)ccc23)c2ccccc2)c1` (stereo not shown) [CPD-225], the SI was more than 357.

`COc1cccc(NC(C(=O)c2c[nH]c3ccccc23)c2ccc(C)nc2)c1` (stereo not shown) [CPD-226]: the SI is 1005.

In the case of `COc1cccc(NC(C(=O)c2c[nH]c3ncc(F)cc23)c2ccccc2)c1` (stereo not shown) [CPD-227], the SI is reported as more than 454.

With `COc1cccc(NC(C(=O)c2c[nH]c3ccc(CN(C)C)cc23)c2ccccc2)c1` (stereo not shown) [CPD-228], the SI is 8.

In the case of `COc1cccc(NC(C(=O)c2c[nH]c3ccc(S(C)(=O)=O)cc23)c2ccccc2)c1` (stereo not shown) [CPD-229], the SI was more than 48.

Turning to `COc1cccc(NC(C(=O)c2c[nH]c3cccc(F)c23)c2ccccc2)c1` (stereo not shown) [CPD-230], the SI is given as 176.

Take `COc1cccc(NC(C(=O)c2c[nH]c3cccc(OC)c23)c2ccccc2)c1` (stereo not shown) [CPD-231]: the SI was 15.

On to `COc1cc(NC(C(=O)c2c[nH]c3nc(C)ccc23)c2ccccc2)cc(OC)c1` (stereo not shown) [CPD-232], for which the SI is given as more than 1206.

Consider `COc1cc(NC(C(=O)c2c[nH]c3ccccc23)c2ccc(C#N)cc2)cc(OC)c1` (stereo not shown) [CPD-233], for which the SI was 817.

As for `COc1cc(NC(C(=O)c2c[nH]c3ncc(F)cc23)c2ccccc2)cc(OC)c1` (stereo not shown) [CPD-234], the SI was 319.

For the molecule `COc1cc(NC(C(=O)c2c[nH]c3ccccc23)c2ccc(F)cc2)cc(OC)c1` (stereo not shown) [CPD-235], the SI was found to be 3701.

For the molecule `COc1cccc(NC(C(=O)c2c[nH]c3cc(N4CCOCC4)ccc23)c2ccccc2)c1` (stereo not shown) [CPD-237], the SI was more than 84.

In the case of `COc1cccc(NC(C(=O)c2c[nH]c3ccccc23)c2cn3ncccc3n2)c1` (stereo not shown) [CPD-238], the SI is recorded as more than 3548.

Regarding `COc1cccc(NC(C(=O)c2c[nH]c3ccccc23)c2ccc(N(C)C)nc2)c1` (stereo not shown) [CPD-239], the SI is more than 6.

On to `COc1cccc(NC(C(=O)c2c[nH]c3ccccc23)c2cnc(OC)nc2)c1` (stereo not shown) [CPD-240], for which the SI is listed as 578.

With `COc1cncc(NC(C(=O)c2c[nH]c3ccc(F)cc23)c2ccc(OC)nc2)c1` (stereo not shown) [CPD-241], the SI is listed as 1531.

Turning to `COc1cc(NC(C(=O)c2c[nH]c3ccccc23)c2ccccc2)cc(OCCN(C)C)c1` (stereo not shown) [CPD-243], the SI is 8.

In the case of `COc1cccc(NC(C(=O)c2cn(CCO)c3cc(F)ccc23)c2ccccc2)c1` (stereo not shown) [CPD-245], the SI was found to be 192.

Take `CCOc1cncc(NC(C(=O)c2c[nH]c3ccccc23)c2ccccc2)c1` (stereo not shown) [CPD-246]: the SI is 51.

As to `CC(C)Oc1cncc(NC(C(=O)c2c[nH]c3ccccc23)c2ccccc2)c1` (stereo not shown) [CPD-247], the SI is 37.

Regarding `CCc1cncc(NC(C(=O)c2c[nH]c3ccccc23)c2ccccc2)c1` (stereo not shown) [CPD-248], the SI worked out at 27.

Source of the values: patent US12012411B2, “Viral replication inhibitors” (Katholieke Universiteit Leuven, priority 2011, dated 2024).
